# From PubChem BioAssay AID1159524 (National Center for Advancing Translational Sciences (NCATS), 2015)
# The entries are a selection whose mix differs from that of the whole data set. Results filed as inconclusive are left out. Activity calls are given as the source filed them. Calls come from the whole dose curve; tested in HEK293T cells.
# Assay: High Throughput Screening for Foot and Mouth Disease Virus Antivirals; note: read-out not given here; nearly all actives have a fitted effect of over 45% in size
# Conditions: FMDV antiviral cell-based qHTS
# Potency is the fitted concentration of half-maximal effect.
row,Structure (SMILES),Potency
1,CN(C)C(=O)c1cc([N+](=O)[O-])cc2c1-c1c(cc([N+](=O)[O-])cc1[N+](=O)[O-])C2=O,active: 10 µM
2,CCc1nc2c(n1)c1c(non1O)c1c2no[n+]1[O-],active: 39.8 µM
